Compound potency records, mixed from different reports. Data source: NIAID ChemDB in PubChem.

Lines come from different laboratories, so protocols vary.

smiles | measure | conditions | organism | protein | dose | method | cell line | strain or isolate | kind | value
C=CP(=O)(O)OC[C@H]1O[C@@H](n2cc(C)c(=O)[nH]c2=O)C[C@@H]1F | CC50 | - | - | - | - | trypan blue | H9 | - | toxicity | >100 µM
Cc1cn([C@H]2C[C@H](F)[C@@H](CO)O2)c(=O)[nH]c1=O | EC50 | - | HIV-1 | - | - | RT activity | H9 | - | culture | <0.1 µM
Nc1cc([As]=O)ccc1O | CC50 | - | - | - | - | - | MT-2 | - | toxicity | 0.42 µg/mL
COc1ccc2c3c1OC1C4(OC)CCC5(CC4C(C)=O)C(C2)N(C)CCC315.Cl | inhibition | - | Mycobacterium tuberculosis | - | 12.5 µg/mL | BACTEC | - | H37Rv | culture | -19%
O=[N+]([O-])c1ccc(S(=O)(=O)c2ccc([N+](=O)[O-])cc2[N+](=O)[O-])c([N+](=O)[O-])c1 | IC50 | - | HIV-1 | Integrase | - | 3′ processing | - | - | target | 60 µM
Cc1ccc(NC(=O)NP(=O)(Nc2ccccc2)Nc2ccccc2)cc1Cl | inhibition | - | Mycobacterium tuberculosis | - | 12.5 µg/mL | BACTEC | - | H37Rv | culture | 15%
Cc1cn([C@H]2C[C@H](N=[N+]=[N-])[C@@H](COP(=O)(F)OCCSC(=O)C(C)(C)C)O2)c(=O)[nH]c1=O | EC50 | - | HIV-1 | - | - | - | CEM + CEM-SS | IIIB | culture | 0.003 µM
Br.NC1=NCCN1[N+](=O)[O-] | inhibition | - | Mycobacterium tuberculosis | - | 12.5 µg/mL | BACTEC | - | H37Rv | culture | 55%
Nc1ccn([C@H]2CC[C@@H](COP(=O)(O)F)O2)c(=O)n1 | CC50 | - | - | - | - | XTT | PBMC | - | toxicity | >1000 µM
O=[N+]([O-])c1cc(Cn2nnc(-c3cc([N+](=O)[O-])cc([N+](=O)[O-])c3)n2)cc([N+](=O)[O-])c1 | MIC | 7 d | Mycobacterium kansasii | - | - | - | - | 6509/96 | culture | 2 µM
CCOC(=O)P(=O)(O)OC[C@H]1O[C@@H](n2cc(C)c(=O)[nH]c2=O)C[C@@H]1F | EC50 | - | HIV-1 | - | - | p24 | H9 | - | culture | 30 µM
Cc1cn([C@H]2C[C@H](N=[N+]=[N-])[C@@H](CO)O2)c(=O)[nH]c1=O | CC50 | - | - | - | - | XTT | MT-4 | - | toxicity | 154 µM
O=C1OCCN1[N+](=O)[O-] | inhibition | - | Mycobacterium tuberculosis | - | 12.5 µg/mL | BACTEC | - | H37Rv | culture | 99%
Cc1cn([C@H]2C[C@H](F)[C@@H](COP(=O)(O)CF)O2)c(=O)[nH]c1=O | EC50 | - | HIV-1 | - | - | p24 | H9 | - | culture | 55 µM
O=C1OP(=O)(Cl)Oc2ccccc21 | MIC bound | - | Mycobacterium tuberculosis | - | - | resazurin | - | H37Rv | culture | >6.25 µg/mL
C(/C=C/c1ccccc1)=NCCNCCN=C/C=C/c1ccccc1.[N-]=[N+]=[N][Hg][N]=[N+]=[N-] | zone | - | Aspergillus niger | - | 30000 µg/mL | agar diffusion | - | - | culture | 39 mm
ClP1(Cl)=NP(Cl)(Cl)=NP(Cl)(Cl)=N1 | MIC bound | - | Mycobacterium tuberculosis | - | - | BACTEC | - | H37Rv | culture | >128 µg/mL
N#Cc1c(SCCBr)nsc1-c1ccccc1 | EC50 | - | Coxsackie virus | - | - | plaque count | HEP-2 | TYPE B1 | culture | >25 µg/mL

A second listing of 2 rows from above:

smiles	measure	conditions	organism	protein	dose	method	cell line	strain or isolate	kind	value
O=[N+]([O-])c1ccc(S(=O)(=O)c2ccc([N+](=O)[O-])cc2[N+](=O)[O-])c([N+](=O)[O-])c1	IC50	-	HIV-1	Integrase	-	3′ processing	-	-	target	60 µM
Cc1cn([C@H]2C[C@H](F)[C@@H](CO)O2)c(=O)[nH]c1=O	EC50	-	HIV-1	-	-	RT activity	H9	-	culture	<0.1 µM

ICn: concentration for n% inhibition. MIC bound comes from a single tested concentration. ECn: concentration that inhibits the pathogen or its effect by n%. Zones are inhibition diameters on agar. Percent inhibition refers to the dose given; in toxicity tests it is the harm to the cells. An empty or dashed field is not shown. CCn is the concentration with n% toxicity to the cells.